# PubChem BioAssay AID624099 – ICCB-Longwood – 2012
# Purpose: 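Human genes that papillomavirus E2 requires to repress the HPV18 LCR promoter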 (primary screen)
# Cells: human C33A cervical carcinoma cells (HPV-negative) stably expressing BPV1 E2 and an HPV18 LCR luciferase reporter
# Reagent: siRNA pool against human genes, 40 nM
# Time to read-out: 72 h
# Read-out: 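Per-well luciferase luminescence, z-scored on each plate against the plate mean and SD with control wells left out, then averaged across three replicate plates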
# Reading the numbers: mean z-score and z-score: higher = stronger reporter signal, weaker E2 silencing
# Active means: 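Hit if mean z-score reaches 2 and two or more of three replicate z-scores also reach 2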
# In all, the deposit lists about 21,000 reagents; shown is a part drawn at random. In the full data, 497 (2.4%) got an active call. 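Higher z means weaker E2 silencing; only reporter increases were scored, and knock-downs that hurt cell survival may mask genuine repressor factors.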 Unmarked entries are inactive. No sequences are given here.
Gene,mean z-score,"z-score, replicate A","z-score, replicate B","z-score, replicate C"
LOC392533 (retired record),-2,-2.09,-2.43,-1.47
"MUC15 (mucin 15, cell surface associated)",0.69,0.81,0.6,0.66
GUCY1B2 (guanylate cyclase 1 soluble subunit beta 2 (pseudogene)),-1.17,-0.75,-1.54,-1.23
DLX5 (distal-less homeobox 5),1.59,1.58,1.62,1.58
ARFGAP3 (ARF GTPase activating protein 3),1.05,1.14,0.97,1.05
CLTC (clathrin heavy chain),0.58,0.44,0.66,0.64
TECTB (tectorin beta),0.13,0.22,-0.03,0.21
ATP11C (ATPase phospholipid transporting 11C (ATP11C blood group)),0.26,0.42,0.27,0.07
LOC389936 (retired record),-0.57,-0.46,-0.7,-0.56
BACH2 (BACH transcriptional regulator 2),-0.82,-1.14,-0.54,-0.79
CRAMP1 (cramped chromatin regulator 1),-0.31,0.03,-0.01,-0.96

Next part (3 carried over from the part before).
Gene,mean z-score,"z-score, replicate A","z-score, replicate B","z-score, replicate C"
LOC389936 (retired record),-0.57,-0.46,-0.7,-0.56
BACH2 (BACH transcriptional regulator 2),-0.82,-1.14,-0.54,-0.79
CRAMP1 (cramped chromatin regulator 1),-0.31,0.03,-0.01,-0.96
LOC401210 (retired record),0.23,0.14,-0.02,0.58
LOC219414 (retired record),0.42,0.22,0.52,0.52
NPAS3 (neuronal PAS domain protein 3),-0.28,-0.59,-0.37,0.13
RPTN (repetin),-0.38,-0.25,-0.71,-0.19
ASB11 (ankyrin repeat and SOCS box containing 11),-0.72,-0.36,-0.77,-1.03
CDH18 (cadherin 18),-1.03,-1.06,-0.86,-1.18
RPL19 (ribosomal protein L19),-1.72,-1.82,-1.63,-1.72
CAPN15 (calpain 15),3.21 (active),3.71,2.9,3.04
LOC388432 (retired record),0.42,0.43,0.18,0.66
LOC402675 (retired record),0.9,0.47,1.23,1.01
RXRB (retinoid X receptor beta),-0.34,-0.28,-0.3,-0.45
"RAB8A (RAB8A, member RAS oncogene family)",0.58,0.8,0.76,0.17
